From paper PMC5900025, “Naphthoquinone Derivatives as Scaffold to Develop New Drugs for Tuberculosis Treatment” (Frontiers in Microbiology, 2018) come the findings set out here.

The data set relates to M. tuberculosis pan-susceptible H37Rv (ATCC 27294). The format is cell-based. As to conditions: IC50 J774A.1 / MIC.

As to `O=C1C=C(Nc2ccccc2)C(=O)c2ccccc21` [Compound 6, 2-(Phenylamino)naphthalene-1,4-dione], the “SI (IC50/MIC)” value is reported as at least 8.

Regarding `NNC(=O)c1ccncc1` [INH, isoniazid, reference compound], the “SI (IC50/MIC)” value is 8523.

For `CO[C@H]1/C=C/O[C@@]2(C)Oc3c(C)c(O)c4c(O)c(c(/C=N/N5CCN(C)CC5)c(O)c4c3C2=O)NC(=O)/C(C)=C\C=C\[C@H](C)[C@H](O)[C@@H](C)[C@@H](O)[C@@H](C)[C@H](OC(C)=O)[C@@H]1C` [RIF, rifampicin, reference compound], the “SI (IC50/MIC)” value was at least 4094. `NC1=CC(=O)c2ccccc2C1=O` [Compound 5, 2-Aminonaphthalene-1,4-dione]: the “SI (IC50/MIC)” value is at least 16. Turning to `CC1(C)CCC2=C(O1)C(=O)c1ccccc1C2=O` [Compound 2, 2,2-Dimethyl-3,4-dihydro-2H-benzo[g]chromene-5, 10-dione], the “SI (IC50/MIC)” value is listed as 2.8.

`CC1(C)CC2=C(O1)C(=O)c1ccccc1C2=O` [Compound 3, 2,2-Dimethyl-2,3-dihydronaphtho[2,3-b]furan-4,9-dione]: the “SI (IC50/MIC)” value is at least 16.
